Protein sequences, listed by entry. Tags and fused reporters are not part of them. Residues count along the entry.
UniProt P06756, 31-1048 limits assumed, chain 1 of 2: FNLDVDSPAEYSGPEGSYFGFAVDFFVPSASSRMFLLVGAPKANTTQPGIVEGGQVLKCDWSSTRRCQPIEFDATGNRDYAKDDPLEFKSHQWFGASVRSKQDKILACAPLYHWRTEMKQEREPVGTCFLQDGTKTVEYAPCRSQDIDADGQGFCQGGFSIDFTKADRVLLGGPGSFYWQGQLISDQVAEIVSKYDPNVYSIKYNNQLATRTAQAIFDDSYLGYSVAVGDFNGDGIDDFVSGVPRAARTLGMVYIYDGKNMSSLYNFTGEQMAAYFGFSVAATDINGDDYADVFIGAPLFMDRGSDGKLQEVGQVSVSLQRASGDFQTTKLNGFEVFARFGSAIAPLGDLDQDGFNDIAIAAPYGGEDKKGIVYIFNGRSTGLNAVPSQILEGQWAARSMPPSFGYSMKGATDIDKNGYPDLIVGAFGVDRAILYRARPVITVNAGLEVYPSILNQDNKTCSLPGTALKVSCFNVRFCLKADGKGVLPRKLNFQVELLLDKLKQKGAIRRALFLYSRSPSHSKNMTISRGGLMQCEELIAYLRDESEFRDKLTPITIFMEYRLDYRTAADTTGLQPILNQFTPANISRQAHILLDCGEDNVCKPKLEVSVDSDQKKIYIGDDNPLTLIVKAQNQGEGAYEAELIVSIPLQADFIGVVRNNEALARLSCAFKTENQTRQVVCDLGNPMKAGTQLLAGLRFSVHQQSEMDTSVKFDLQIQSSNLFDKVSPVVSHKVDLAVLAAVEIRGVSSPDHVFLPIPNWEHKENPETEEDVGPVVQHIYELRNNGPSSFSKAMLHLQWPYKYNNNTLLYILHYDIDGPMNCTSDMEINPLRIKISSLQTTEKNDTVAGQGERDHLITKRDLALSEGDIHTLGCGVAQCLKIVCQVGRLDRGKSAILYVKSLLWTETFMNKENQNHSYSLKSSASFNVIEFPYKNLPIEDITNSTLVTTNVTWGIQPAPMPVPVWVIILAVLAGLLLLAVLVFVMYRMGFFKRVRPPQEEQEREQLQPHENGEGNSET

In patent US20240209034A1 (priority 2021, published 2024):

Target: integrin αvβ6 (UniProt P06756)
Assay: flow cytometry on K562 αvβ6:mCherry cells, apparent KD from Hill fit, mean±s.d.

## A20FMDV2 (peptide)
  Kd: 63.1 nM
